Measured values from several laboratories, pooled; numbers as filed in NIAID ChemDB.

All rows: growth or infection tests; species: Rhinovirus

Inhibition is in % at the dose shown (toxicity tests: loss of growth or viability).

structure	cells	endpoint	strain	dose	method	value
Nc1c(S(=O)(=O)O)cc2cc(S(=O)(=O)O)cc(O)c2c1O	Human embryonic lung cells	inhibition	-	10 µg/mL	cytopathic effect	0%
Cc1ccc(Cn2cnc3c(N(C)C)nc(C(F)(F)F)nc32)c(C)c1	M-HELA	inhibition	Serotype 21	8 µM	plaque count	16%
Cc1cc(CCCCCOc2c(Cl)cc(C3=NCCO3)cc2Cl)on1	HeLa	EC50	TYPE 75	-	plaque count	0.07 µg/mL
CCOC(=O)c1ccc(OCCOc2ccc(-c3snc(SC)c3C#N)cc2)cc1	HELA-OHIO	EC50	Serotype 89 (group B)	-	cytopathic effect	>2 µM
Fc1cccc(Cn2cnc3c(Nc4cccc(F)c4)nc(C(F)(F)F)nc32)c1	M-HELA	EC50	Serotype 58	-	plaque count	4.2 µM
O=S(=O)(O)c1cccc2c(O)cccc12	Human amnion AV3 cells	inhibition	-	5 µg/mL	cytopathic effect	0%
CCO/N=C/c1ccc(OCCC2CCN(c3ccc(Cl)nn3)CC2)cc1	KB	EC50	211-CV13 (ICAM-1 receptor group 9)	-	neutral red	0.015 µM
CN(C)c1nc(C(F)(F)F)nc2c1ncn2Cc1ccc(F)cc1	M-HELA	inhibition	Serotype 31	8 µM	plaque count	47%
Cc1ccc(C(=O)Nc2ccc(S(=O)(=O)O)c3cc(S(=O)(=O)O)cc(S(=O)(=O)O)c23)cc1NC(=O)c1cccc(NC(=O)Nc2cccc(C(=O)Nc3cc(C(=O)Nc4ccc(S(=O)(=O)O)c5cc(S(=O)(=O)O)cc(S(=O)(=O)O)c45)ccc3C)c2)c1	Human amnion AV3 cells	inhibition	-	10 µg/mL	cytopathic effect	40%
Fc1cccc(Nc2nc(C(F)(F)F)nc3c2ncn3Cc2ccccc2F)c1	M-HELA	EC50	Serotype 1B	-	plaque count	3.9 µM
O=C(Nc1ccc(S(=O)(=O)[O-])c2cccc(S(=O)(=O)[O-])c12)c1ccccc1	Human embryonic lung cells	inhibition	-	50 µg/mL	cytopathic effect	20%
CSc1nsc(-c2ccc(OCCCOc3ccc([N+](=O)[O-])cc3)cc2)c1C#N	HELA-OHIO	EC50	Serotype 42 (group A)	-	cytopathic effect	>1 µM
Cc1ccccc1Cn1cnc2c(N(C)C)nc(C(F)(F)F)nc21	M-HELA	inhibition	Serotype 4	8 µM	plaque count	22%
CCOC(=O)c1ccc(OCCCOc2ccc(-c3snc(SC)c3C#N)cc2)cc1	HELA-OHIO	EC50	Serotype 39 (group B)	-	cytopathic effect	0.5 µM
Cc1ccc(Cn2cnc3c(N(C)c4ccccc4)nc(C(F)(F)F)nc32)cc1	M-HELA	EC50	Serotype 1B	-	plaque count	1.9 µM
O=C(O)c1ccc(S(=O)(=O)[O-])cc1C(=O)O	Human embryonic lung cells	inhibition	-	50 µg/mL	cytopathic effect	0%
CSc1nsc(-c2ccc(OCCCCOc3ccccc3)cc2)c1C#N	HELA-OHIO	EC50	Serotype 9 (group B)	-	cytopathic effect	>20 µM
Cc1cc(Cl)ccc1Cn1cnc2c(N(C)C)nc(C(F)(F)F)nc21	M-HELA	inhibition	Serotype 29	8 µM	plaque count	32%
CCOC(=O)/C=C/[C@H](C[C@@H]1CCNC1=O)NC(=O)[C@@H](CC(=O)[C@@H](NC(=O)c1cc(C)on1)C(C)C)Cc1ccc(F)cc1	OHIO HELA-I	EC50	Isolate 29	-	cytopathic effect / visual reading	0.01 µg/mL
CN(C)c1nc(C(F)(F)F)nc2c1ncn2Cc1ccc(Cl)cc1Cl	M-HELA	inhibition	Serotype 18	8 µM	plaque count	32%
Nc1ccc2cc([N+](=O)[O-])cc(S(=O)(=O)[O-])c2c1	Human embryonic lung cells	inhibition	-	5 µg/mL	cytopathic effect	30%

For reference, 2 entries again:

{"structure": "CSc1nsc(-c2ccc(OCCCOc3ccc([N+](=O)[O-])cc3)cc2)c1C#N", "cells": "HELA-OHIO", "endpoint": "EC50", "strain": "Serotype 42 (group A)", "method": "cytopathic effect", "value": ">1 µM"}
{"structure": "O=C(O)c1ccc(S(=O)(=O)[O-])cc1C(=O)O", "cells": "Human embryonic lung cells", "endpoint": "inhibition", "dose": "50 µg/mL", "method": "cytopathic effect", "value": "0%"}

Neighbouring rows are from separate reports. ECn is the concentration giving n% inhibition of infection, replication or growth. Blank or dashed fields: not listed here.